Anti-infective test results gathered from many reports (values: NIAID ChemDB through PubChem).

Common to all: whole-cell or culture tests; organism: Coxsackie virus; method: plaque count; endpoint: EC50

Lines come from different laboratories, so protocols vary.

compound,cell line,strain or isolate,value
COc1ccc(OCCCCCCn2ccnc2)c(Cl)c1,HeLa,Type B3/Woodruff,21.8 µM
CCOC(=O)c1ccc(OCCC2CCN(c3ccc(C)nn3)CC2)cc1,HEP-2/L-929/VERO,TYPE B1,3 µM
Nc1nccc2c1nnn2[C@H]1CC[C@@H](CO)O1,VERO,B1,>387 µM
COC(=O)[C@]1(C)CCC[C@]2(C)c3cc(Br)c4nc(C(F)(F)F)[nH]c4c3CCC12,HeLa,TYPE B4,>4 µg/mL
Cc1cc(CCCCCOc2c(Cl)cc(C3=NCCO3)cc2Cl)on1,RD-2,A-9,0.004 µg/mL
COc1ccc(/C=N/N=C(/N)NO)c(OC)c1OC.Cc1ccc(S(=O)(=O)O)cc1,VERO,ATCC VR28 (TYPE B1),>50 µM
CSc1nsc(-c2cc[n+](C)cc2)c1C#N,HEP-2,TYPE B1,>1000 µM
Cn1cc(CCCCOc2ccc(C3=NCCO3)cc2)cc1C=O,VERO,,>280 µM
CSc1nsc(-c2ccc(OCCCCOc3ccccc3)cc2)c1C#N,HEP-2/L-929/VERO,TYPE B1,0.3 µM
Nc1nccc2nn([C@H]3C[C@H](O)[C@@H](CO)O3)nc12,VERO,B1,>396 µM
COC(=O)[C@]1(C)CCC[C@]2(C)c3cc4cc[nH]c4cc3CCC12,HeLa,TYPE B4,>4 µg/mL
CSc1nsc(-c2ccc(OCc3ccccc3)cc2)c1C#N,HEP-2,TYPE B1,10 µM
CSc1nsc(-c2cccs2)c1C#N,HEP-2,TYPE B1,>6 µM
COC(=O)[C@]1(C)CCC[C@]2(C)c3ccc4nc(-c5ccccc5)c(-c5ccccc5)nc4c3CCC12,HeLa,TYPE B4,>4 µg/mL
OC[C@H]1O[C@@H](n2nnc3c(Cl)nccc32)C[C@@H]1O,VERO,B1,>368 µM
CSc1nsc(-c2ccc(C(F)(F)F)cc2)c1C#N,HEP-2,TYPE B1,>14 µM
CSc1nsc(-c2ccc(O)cc2)c1C#N,HEP-2,TYPE B1,>2 µM
CSc1nsc(-c2ccc(OCCCOc3ccc(C#N)cc3)cc2)c1C#N,HEP-2/L-929/VERO,TYPE B1,>2 µM
Cc1ccccc1C(c1ccccc1)N1CCN(c2ncnc3c2cnn3-c2ccccc2)CC1,RD,TYPE 3,0.13 µM
CCOC(=O)c1ccc(OCCOc2ccc(-c3snc(SC)c3C#N)cc2)cc1,HEP-2/L-929/VERO,TYPE B1,>2 µM
COc1ccc(/C=N/N=C(\N)NO)cc1.Cc1ccc(S(=O)(=O)O)cc1,VERO,ATCC VR28 (TYPE B1),>50 µM
Nc1nccc2c1ncn2[C@H]1C[C@H](O)[C@@H](CO)O1,VERO,B1,>397 µM
CSc1nsc(-c2ccccc2)c1C#N,HEP-2,TYPE B1,>20 µM

2 of the rows above, restated:

| compound | cell line | strain or isolate | value |
|---|---|---|---|
| Nc1nccc2nn([C@H]3C[C@H](O)[C@@H](CO)O3)nc12 | VERO | B1 | >396 µM |
| CSc1nsc(-c2ccccc2)c1C#N | HEP-2 | TYPE B1 | >20 µM |

Blank or dashed fields: not listed here. ECn: concentration that inhibits the pathogen or its effect by n%.